Measurements from patent US20240109955A1 (published 2024).
Residue numbers refer to the chain shown, from its start.

B1: MX828 + 829 (other)
chain 1: QTVVTQEPSFSVSPGGTVTLTCGLSSGSVSTAYFPSWYQQTPGQAPRTLIYGTNTRSSGVPDRFSGSILGNKAALTITGAQADDESDYYCVLYMGRGIVVFGGGTKLTVLGGSSGEIVLTQSPGTLSLSPGERATLSCRASQSVSSSYLAWYQQKPGQAPRLLIYSASSRATGIPDRFSGSGSGTDFTLTISRLEPEDFAVYFCQQYVGLTGWTFGQGTKVEIKGGGGSGGSGSGGGGSASGSGQMQLVQSGPEVKKPGTSVKVSCKASGFTFTSSAVQWVRQRQRLEWIGWIVVGSGNTNYAQKFQERVTITRDMSTSTAYMELSSLRSEDTAVYYCAAPNCSNVVCYDGFDIWGQGTMVTVSSGGSSGQVQLVESGGGVVQPGRSLRLSCAASGFTLSSYGMHWVRQAPGKGLEWVAVISYDGSNKYYVDSVKGRFTISRDNSKNTLYLQMNSLRAEDTAVYYCRWAYWELLPDYYYGMDVWGQGTTVTVSSASGGSGDKTHTCPPCPAPELLGGPSVFLFPPKPKDTLMISRTPEVTCVVVDVSHEDPEVKFNWYVDGVEVHNAKTKPREEQYNSYVVSVLTVLHQDWLNGKEYKCKVSNKALPAPIEKTISKAKGQPREPQVYTLPPSRDELTKNQVSLTCLVKGFYPSDIAVEWESNGQPENNYKTTPPVLDSDGSFFKKLTVDKSRWQQGNVFSCSVLHEALHSHYTQKSLSLSPG
chain 2: DIQMTQSPSSVSASVGDRVIITCRASQGISSWLAWYQQKPGKAPKVLIYDASSLQSGVPSRFSGSGYGTDFTLTISSLQPEDSATYYCQQAKSFPITFGQGTRLEIKGGSSGEIVLTQSPGTLSLSPGERATLSCRASQSVSSSYLAWYQQKPGQAPRLLIYSASSRATGIPDRFSGSGSGTDFTLTISRLEPEDFAVYFCQQYVGLTGWTFGQGTKVEIKGGGGSGGSGSGGGGSASGSGQMQLVQSGPEVKKPGTSVKVSCKASGFTFTSSAVQWVRQRQRLEWIGWIVVGSGNTNYAQKFQERVTITRDMSTSTAYMELSSLRSEDTAVYYCAAPNCSNVVCYDGFDIWGQGTMVTVSSGGSSGQVQLVESGGGVVQPGRSLRLSCAASGFTFSSYAFHWVRQAPGKGLEWVAVISYDGSNQYYADSVKGRFTISRDNSKNTLYLQMNSLRADDTAVYYCARDLAIAVAGTWHYYNGMDVWGQGTTVTVSSASGGSGDKTHTCPPCPAPELLGGPSVFLFPPKPKDTLMISRTPEVTCVVVDVSHEDPEVKFNWYVDGVEVHNAKTKPREEQYNSYVVSVLTVLHQDWLNGKEYKCKVSNKALPAPIEKTISKAKGQPREPQVYTLPPSRDELTKNQVSLTCLVKGFYPSDIAVEWESNGQPENNYKTTPPVLDSDGSFFKKLTVDKSRWQQGNVFSCSVLHEALHSHYTQKSLSLSPG
B2: MX830 (bispecific antibody)
chain: B1 chain 1 with V208G
B3: MX828 (bispecific antibody)
chain: B1 chain 1
B4: MX837 (trispecific antibody)
chain 1: B1 chain 1 with S632C, T644W
chain 2: DIQMTQSPSSVSASVGDRVIITCRASQGISSWLAWYQQKPGKAPKVLIYDASSLQSGVPSRFSGSGYGTDFTLTISSLQPEDSATYYCQQAKSFPITFGQGTRLEIKGGSSGEIVLTQSPGTLSLSPGERATLSCRASQSVSSSYLAWYQQKPGQAPRLLIYSASSRATGIPDRFSGSGSGTDFTLTISRLEPEDFAVYFCQQYVGLTGWTFGQGTKVEIKGGGGSGGSGSGGGGSASGSGQMQLVQSGPEVKKPGTSVKVSCKASGFTFTSSAVQWVRQRQRLEWIGWIVVGSGNTNYAQKFQERVTITRDMSTSTAYMELSSLRSEDTAVYYCAAPNCSNVVCYDGFDIWGQGTMVTVSSGGSSGQVQLVESGGGVVQPGRSLRLSCAASGFTFSSYAFHWVRQAPGKGLEWVAVISYDGSNQYYADSVKGRFTISRDNSKNTLYLQMNSLRADDTAVYYCARDLAIAVAGTWHYYNGMDVWGQGTTVTVSSASGGSGDKTHTCPPCPAPELLGGPSVFLFPPKPKDTLMISRTPEVTCVVVDVSHEDPEVKFNWYVDGVEVHNAKTKPREEQYNSYVVSVLTVLHQDWLNGKEYKCKVSNKALPAPIEKTISKAKGQPREPQVCTLPPSRDELTKNQVSLSCAVKGFYPSDIAVEWESNGQPENNYKTTPPVLDSDGSFFLVSKLTVDKSRWQQGNVFSCSVLHEALHSHYTQKSLSLSPG
B5: MX838 (trispecific antibody)
chain 1: B1 chain 1 with V208G, S632C, T644W
chain 2: B4 chain 2 with V205G
B6: MX835 (trispecific antibody)
chain 1: B1 chain 1 with V208G, S632C, T644W
chain 2: EIVLTQSPGTLSLSPGERATLSCRASQSVSSSYLAWYQQKPGQAPRLLIYSASSRATGIPDRFSGSGSGTDFTLTISRLEPEDFAVYFCQQYGGLTGWTFGQGTKVEIKGGSSGDIQMTQSPSSVSASVGDRVIITCRASQGISSWLAWYQQKPGKAPKVLIYDASSLQSGVPSRFSGSGYGTDFTLTISSLQPEDSATYYCQQAKSFPITFGQGTRLEIKGGGGSGGSGSGGGGSASGSGQVQLVESGGGVVQPGRSLRLSCAASGFTFSSYAFHWVRQAPGKGLEWVAVISYDGSNQYYADSVKGRFTISRDNSKNTLYLQMNSLRADDTAVYYCARDLAIAVAGTWHYYNGMDVWGQGTTVTVSSGGSSGQMQLVQSGPEVKKPGTSVKVSCKASGFTFTSSAVQWVRQRQRLEWIGWIVVGSGNTNYAQKFQERVTITRDMSTSTAYMELSSLRSEDTAVYYCAAPNCSNVVCYDGFDIWGQGTMVTVSSASGGSGDKTHTCPPCPAPELLGGPSVFLFPPKPKDTLMISRTPEVTCVVVDVSHEDPEVKFNWYVDGVEVHNAKTKPREEQYNSYVVSVLTVLHQDWLNGKEYKCKVSNKALPAPIEKTISKAKGQPREPQVCTLPPSRDELTKNQVSLSCAVKGFYPSDIAVEWESNGQPENNYKTTPPVLDSDGSFFLVSKLTVDKSRWQQGNVFSCSVLHEALHSHYTQKSLSLSPG
B7: MX829 (bispecific antibody)
chain: B1 chain 2
B8: MX834 (trispecific antibody)
chain 1: B1 chain 1 with S632C, T644W
chain 2: B1 chain 1 with S632C, T644W

Target: SARS-CoV-2 Omicron BA.4/5 spike protein (F486V) (SARS-CoV-2, UniProt P0DTC2 14-1273)
Test: cell-based or functional assay

Compared with B1, B2 is 130-fold higher in “IC50, pseudovirus neutralization” value: 2 nM for the first, 260 nM for the second.

Going from B3 to B4, the “IC50, pseudovirus neutralization” value falls from 86 nM to 9 nM (9.6-fold).

B5 and B6 are within 1.5-fold of each other in “IC50, pseudovirus neutralization” value: 9 nM for the first, 8 nM for the second.

B7 was tested, and the “IC50, pseudovirus neutralization” value was 2 nM.

Going from B1 to B2, the “IC80, pseudovirus neutralization” value rises from 6 nM to 1560 nM (260-fold).

First: B3
Second: B4
The “IC80, pseudovirus neutralization” value of the first is 26-fold higher: 438 nM for the first, 17 nM for the second.

Going from B5 to B6, the “IC80, pseudovirus neutralization” value rises from 18 nM to 30 nM (1.7-fold).

In the case of B7, the “IC80, pseudovirus neutralization” value is reported as 4 nM.

Target: SARS-CoV-2 Omicron BA.1 spike protein (SARS-CoV-2, UniProt P0DTC2 14-1273)
Test: cell-based or functional assay

B8 and B1 are the same in “IC50, pseudovirus neutralization” value: 2 nM for the first, 2 nM for the second.

B2 and B3 are the same in “IC50, pseudovirus neutralization” value: 1 nM for the first, 1 nM for the second.

Compared with B4, B5 is 2-fold lower in “IC50, pseudovirus neutralization” value: 2 nM for the first, 1 nM for the second.

Going from B6 to B7, the “IC50, pseudovirus neutralization” value rises from 2 nM to 14 nM (7-fold).

Compared with B8, B1 is 2-fold lower in “IC80, pseudovirus neutralization” value: 8 nM for the first, 4 nM for the second.

B2 and B3 are the same in “IC80, pseudovirus neutralization” value: 3 nM for the first, 3 nM for the second.

Compared with B4, B5 is 1.8-fold lower in “IC80, pseudovirus neutralization” value: 7 nM for the first, 4 nM for the second.

Compared with B6, B7 is 5.4-fold higher in “IC80, pseudovirus neutralization” value: 8 nM for the first, 43 nM for the second.
